Tested on: KpDsbA
Assay: ITC binding of DsbB-derived peptides to KpDsbA
Parameters: species or system K. pneumoniae
Settings: three independent experiments; for ΔH (enthalpy of binding): pH 7.4, 25 °C in method, 20 °C in table footnote, mean ± SD; for Stoichiometry: pH 7.4, single-site model
Description: Amidation and acetylation ensure that there are no charges on the peptide termini, as these are not present in the native DsbB loop sequence. Binding affinity was measured using a MicroCal™ Auto-iTC200 from (GE Healthcare, USA) at 25 °C. The sample cell was loaded with 200 μL of 100 μM KpDsbA or EcDsbA in 25 mM HEPES, 50 mM NaCl, pH 7.4, and DMSO 0.8 %. The peptide (3 mM) diluted in the same buffer was titrated with an initial injection of 0.5 μL into DsbA, followed by 19 consecutive injections (2.0 μL) offset by 180 s, while the solution was constantly stirred (1000 rpm). Data were fitted to a single-site binding model using MicroCal™ Origin 7.0 software (Origin 7 SR4 v7.0552). Experiments were conducted in triplicate and affinity and thermodynamic parameters are reported as means and standard deviations (Table 4).

SMILES	ΔH (enthalpy of binding)	Stoichiometry
CC(=O)N1CCC[C@H]1C(=O)N[C@@H](CO)C(=O)N1CCC[C@H]1C(=O)N[C@@H](Cc1ccccc1)C(=O)N[C@@H](CCC(N)=O)C(=O)N[C@H](C(=O)N[C@@H](CS)C(=O)N[C@@H](CC(=O)O)C(N)=O)[C@@H](C)O	-11.1 ± 0.2 kcal/mol	0.97
CC(=O)N1CCC[C@H]1C(=O)N[C@@H](CO)C(=O)N1CCC[C@H]1C(=O)N[C@@H](Cc1ccccc1)C(=O)N[C@@H](C)C(=O)N[C@H](C(=O)N[C@@H](CS)C(=O)N[C@@H](CC(=O)O)C(N)=O)[C@@H](C)O	-9.5 ± 0.7 kcal/mol	0.93

— PMC3828196 (PLoS ONE, 2013)
